Compound potency records, mixed from different reports. Data source: NIAID ChemDB in PubChem.

All rows: growth or infection tests; agent: Herpes simplex virus 1; cells: MRC-5; read-out: EC50

Lines come from different laboratories, so protocols vary. Blank or dashed fields: not listed here. ECn: concentration that inhibits the pathogen or its effect by n%.

{"SMILES": "Nc1nc2c(ncn2COCCCP(=O)([O-])O)c(=O)[nH]1", "value": "28 µM"}
{"SMILES": "O=C(OC[C@H]1O[C@@H](OC(=O)c2cc(O)c(O)c(O)c2)[C@H](OC(=O)c2cc(O)c(O)c(O)c2)[C@@H](OC(=O)c2cc(O)c(O)c(O)c2)[C@@H]1OC(=O)c1cc(O)c(O)c(O)c1)c1cc(O)c(O)c(O)c1", "method": "plaque count", "value": "4.12 µM"}
{"SMILES": "Nc1nc2c(ncn2OCC2COP(=O)(O)CO2)c(=O)[nH]1", "strain": "SC16", "method": "cytopathic effect", "value": "32 µg/mL"}
{"SMILES": "Nc1ccn([C@@H]2O[C@H](CO)[C@@H](O)[C@H]2O)c(=S)n1", "strain": "TK-", "method": "plaque count", "value": ">386 µM"}
{"SMILES": "Nc1nc2c(ncn2CCC(CO)CO)c(=O)[nH]1", "strain": "17 isolates", "method": "plaque count", "value": "0.4 µg/mL"}
{"SMILES": "Nc1nc2c(ncn2COC2COP(=O)(O)OC2)c(=O)[nH]1", "strain": "NDG-R", "method": "plaque count", "value": "37 µM"}
{"SMILES": "CCCCCCCCCCc1nccn(COCCO)c1=O", "method": "cytopathic effect", "value": ">100 µM"}
{"SMILES": "CCCCCCCCCCCCCCCCCCOCCOP(=O)(O)CCCOCn1cnc2c(=O)[nH]c(N)nc21", "value": "0.048 µM"}
{"SMILES": "Nc1ccn(C[C@@H](CO)OCP(=O)(O)O)c(=O)n1", "method": "plaque count", "value": "22.5 µM"}
{"SMILES": "O=c1[nH]cnc2c1ncn2OCCOCP(=O)(O)O", "strain": "SC16", "method": "cytopathic effect", "value": ">340 µg/mL"}
{"SMILES": "Nc1nc2c(ncn2COC(CO)CO)c(=O)[nH]1", "strain": "ICI", "method": "plaque count", "value": "0.1 µM"}
{"SMILES": "Nc1nc(=S)n([C@@H]2O[C@H](CO)[C@@H](O)[C@@H]2O)cc1Cl", "strain": "TK-", "method": "plaque count", "value": ">341 µM"}
{"SMILES": "Nc1nc(NC2CC2)c2ncn(COCCCP(=O)(O)O)c2n1", "value": ">100 µM"}
{"SMILES": "Nc1nc2c(ncn2COC(CO)CO)c(=O)[nH]1", "method": "plaque count", "value": "0.2 µM"}
{"SMILES": "Nc1nc2c(ncn2OCC2COP(=O)(O)CO2)c(=O)[nH]1", "strain": "SC16", "method": "cytopathic effect", "value": "32 µM"}
{"SMILES": "O=c1[nH]c(=S)n([C@H]2C[C@H](O)[C@@H](CO)O2)cc1Br", "strain": "KOS", "method": "plaque count", "value": "1.21 µM"}
{"SMILES": "CCCCCCCCCCCCCCCCOCCCOP(=O)(O)OCC(CO)CCn1cnc2c(=O)[nH]c(N)nc21", "value": "0.7 µM"}
{"SMILES": "Nc1nc2c(ncn2C[C@]2(CO)C[C@H]2CO)c(=O)[nH]1", "strain": "KOS (TK-)", "method": "plaque count", "value": "82 µg/mL"}
{"SMILES": "O=c1[nH]c(=O)n(C[C@]2(CO)C[C@H]2CO)cc1/C=C/Br", "strain": "Tomioka", "method": "plaque count", "value": "0.0093 µg/mL"}
{"SMILES": "Cc1cn([C@H]2C[C@H](O)[C@@H](CO)O2)c(=S)[nH]c1=O", "strain": "TK-", "method": "plaque count", "value": ">388 µM"}
{"SMILES": "CCCCCCCCCCCCCCCCOCCCOP(=O)(O)CO[C@H](CO)Cn1ccc(N)nc1=O", "value": "0.0001 µM"}
{"SMILES": "Nc1ccn(C[C@@H](CO)OCP(=O)(O)O)c(=O)n1", "strain": "SC16 (TK+)", "method": "plaque count", "value": "9.3 µM"}
{"SMILES": "CCCCCCCCCCc1nccn(C(CO)OC(CO)CO)c1=O", "method": "cytopathic effect", "value": ">100 µM"}
{"SMILES": "CCCCCCCCCCCCCCCCOCCCOP(=O)(O)CO[C@H](CO)Cn1cnc2c(N)ncnc21", "method": "hybridisation", "value": "<0.0004 µM"}
{"SMILES": "Nc1nc(=S)n([C@H]2C[C@H](O)[C@@H](CO)O2)cc1Cl", "strain": "KOS", "method": "plaque count", "value": "281 µM"}
{"SMILES": "Nc1nc2c(ncn2CCC(CO)CO)c(=O)[nH]1", "strain": "SC16", "value": "0.01 µg/mL"}
{"SMILES": "Nc1nc2c(ncn2CCC(CO)CO)c(=O)[nH]1", "strain": "Clinical isolate", "method": "plaque count", "value": "0.6 µg/mL"}
{"SMILES": "CCCCCCCCCCCCCCCCCCOCCOP(=O)(O)CO[C@H](CO)Cn1ccc(N)nc1=O", "method": "plaque count", "value": "0.03 µM"}

3 of the rows above, restated:

SMILES,strain,method,value
Nc1nc(NC2CC2)c2ncn(COCCCP(=O)(O)O)c2n1,-,-,>100 µM
Nc1ccn(C[C@@H](CO)OCP(=O)(O)O)c(=O)n1,-,plaque count,22.5 µM
Nc1nc2c(ncn2CCC(CO)CO)c(=O)[nH]1,SC16,-,0.01 µg/mL